Results: PMC11130183, “Human neutralizing antibodies target a conserved lateral patch on H7N9 hemagglutinin head” (Nature Communications, 2024)

B1: H7.167 (antibody, V domains shown)
VH: QVQLVQSGGGLVQPGGSLRLSCAASGFNFSSYEMNWVRQAPGKGLEWVSYISSSGSTIYYADSVKGRFTISRDNAKNSLYLQMNSLRAEDTAVYYCRLLWFGELFFDYWGQGTLVTVSS
VL: DIVMTQSPDSLAVSLGERATINCKSSQSVLYSSNNKNYLAWYQQKPGQPPKLLIYWASTRESGVPDRFSGSGSGTDFTLTISSLQAEDVAVYYCQQYYSTPGLTFGGGTKVEIK
B2: L4A-14 (antibody, V domains shown)
VH: EVQLLESGGGVVQPGRSLRLSCAASGFTFSSYAIHWVRQAPGKGLEWVALISYDGSNKYYADSVKGRFTISRDNSKNTLYLQMNSLRAEDTAVYYCNGHGSGGEVGSNWFDPWGQGTLVTVSS
VL: NFMLTQPHSVSESPGKTVTISCTRSSGSIASNYVQWYQQRPGSSPTTVIYEYNQRPSGVPDRFSGSIDSSSNSASLTISGLKTEDEADYYCQSYDSANRVFGGGTKLTVL

Tests used:
[1] = biological target: soluble recombinant HA ΔTM antigen based on A/Shanghai/2/2013 H7N9 (influenza A virus A/Shanghai/2/2013 …); experiment: ELISA; settings: both partners purified
[2] = biological target: T1, H7N9 HA1 based on A/Shanghai/2/2013 (influenza A virus A/Shanghai/2/2013 …); experiment: ELISA; settings: both partners purified
T1 construct: source: bought: Immune Technologies (Cat. No. IT-003-0074p)

Binder | binding result [1] | binding result [2]
B1 | binds | binds
B2 | binds | binds
